Data taken from PubChem BioAssay AID1376 (SRMLSC, 2008).
Only a part is listed here, and it is no random draw. Measured potencies and affinities stand elsewhere. The source made the active and inactive calls. Cut-off read from the data, not from the text of the source: active = inhibition above about 13%; inconclusive = no clear call, values can overlap the other calls; inactive = below that.

Amino acid sequences for entries named in this document (tags omitted). A change or cut given only in a name is not applied to a line headed by its entry.
UniProt P9WMN3: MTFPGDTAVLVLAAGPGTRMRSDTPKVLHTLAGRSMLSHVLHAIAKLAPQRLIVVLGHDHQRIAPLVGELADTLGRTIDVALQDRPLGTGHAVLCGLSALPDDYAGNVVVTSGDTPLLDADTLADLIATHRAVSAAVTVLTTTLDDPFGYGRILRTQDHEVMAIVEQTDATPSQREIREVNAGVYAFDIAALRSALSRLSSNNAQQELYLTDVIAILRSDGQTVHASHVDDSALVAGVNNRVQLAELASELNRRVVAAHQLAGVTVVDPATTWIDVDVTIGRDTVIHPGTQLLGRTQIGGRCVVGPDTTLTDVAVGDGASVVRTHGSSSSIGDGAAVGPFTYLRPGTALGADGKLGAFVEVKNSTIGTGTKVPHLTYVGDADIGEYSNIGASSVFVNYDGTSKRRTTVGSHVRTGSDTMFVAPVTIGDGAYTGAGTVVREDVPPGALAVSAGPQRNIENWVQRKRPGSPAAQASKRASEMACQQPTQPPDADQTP

The compounds below were run against Bifunctional protein GlmU (Mycobacterium tuberculosis (strain ATCC 25618 / H37Rv)) (UniProt P9WMN3) (assay: inhibition of mycobacterial GlmU enzyme – biochemical, glucosamine-1-phosphate acetyltransferase (AID 1376;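 note: 0% = complete reaction with vehicle and 100% = reaction without substrate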)). Settings: M. tuberculosis GlmU acetyltransferase enzyme assay; hits give high values;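 tested at 30 µM in the primary screen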.

| SMILES | inhibition |
| --- | --- |
| COc1ccc(C2=NCC(CBr)S2)cc1 (stereo not drawn) | inactive: 7.41% |
| Cc1ccc(NP(=O)(Oc2ccccc2)Oc2ccccc2)nc1 | inactive: 0.11% |
| O=[N+]([O-])c1cc([N+](=O)[O-])c(CCNc2ccccc2)c([N+](=O)[O-])c1 | inactive: 0.7% |
| CCc1nc2c(n1)c1c(non1O)c1c2no[n+]1[O-] | inactive: 2.27% |
| CC(=O)N1C2C3N(C(C)=O)C1C1N(C(C)=O)C(C(N1C(C)=O)N3C(C)=O)N2C(C)=O | inactive: -0.34% |
| O=[N+]([O-])c1cccc2n[nH]nc12 | inactive: 0.76% |
| CCN(/C(=N/P(=O)(N1CCOCC1)N1CCOCC1)N1CCOCC1)c1ccc(OC)cc1 | inactive: -2.93% |
| Nc1ccc([As](=O)(O)c2ccc(N)cc2)cc1 | inactive: -0.73% |
| C[N+]1=C2C=CC=CC=C2SC12C([N+](=O)[O-])=CC([N+](=O)[O-])=C[C-]2[N+](=O)[O-] (stereo not drawn) | inactive: -1.86% |
| CC1CCN(C(=O)Oc2c(Cl)cc(Cl)c3cccnc23)CC1 | inactive: -3.23% |
| CC(C)=N/N=C(\N)N[N+](=O)[O-] | inactive: -1.73% |
| CN(C)C(=O)OCCc1n(C)cc[n+]1C | inactive: 1.98% |
| O=C(Nc1cc([As](=O)(O)O)ccc1O)c1ccccc1 | inactive: 2.33% |
| O=[N+]([O-])c1ncn(CCn2ncnc2[N+](=O)[O-])n1 | inactive: 3.44% |
| CC(C)(C)C(=O)NC(Sc1ccncn1)C(Cl)(Cl)Cl (stereo not drawn) | inactive: 11.1% |
| O=C(O)CNc1ccc([As](=O)(O)O)cc1 | inactive: 0.39% |
| O=[N+]([O-])c1cccc(NC2=NCC(CBr)S2)c1 (stereo not drawn) | inactive: 4.92% |
| O=P(Nc1nc2ccc(Cl)cc2s1)(c1ccccc1)c1ccccc1 | inactive: 0.23% |
| CC(=O)Nc1ccc([As](=O)(O)O)cc1 | inactive: 5.01% |
| Cc1cc(SC(NC(=O)c2ccc(F)cc2)C(Cl)(Cl)Cl)ncn1 (stereo not drawn) | inactive: 9.96% |
| CCOP(=O)(Nc1ccccc1)OCC | inactive: 0.74% |
| CN(C(=O)Cc1ccc(Cl)c(Cl)c1)[C@H]1CCCC[C@@H]1N1CCCC1 | inactive: 0.05% |
| Cc1ccc(NP(=O)(Oc2ccccc2F)Oc2ccccc2F)nc1 | inactive: 0.13% |
| Nc1cccc2ccc([As](=O)(O)O)cc12 | inactive: 3.47% |
| CCN(N=Nc1nonc1N)c1nonc1N | inactive: 1.73% |
| Cc1ccc(N/C(=N/P(=O)(N2CCOCC2)N2CCOCC2)N2CCOCC2)cc1 | inactive: -2.29% |

| SMILES | inhibition |
| --- | --- |
| NC(=O)c1cc([N+](=O)[O-])cc([N+](=O)[O-])c1N | inactive: 2.42% |
| CN1CCCC(OC(=O)C(c2ccccc2)c2ccccc2)C1 (stereo not drawn) | inactive: -0.13% |
| Clc1ccc(Cl)c(NC2=NCC(CBr)S2)c1 (stereo not drawn) | inactive: -0.3% |
| COc1ccccc1OP(=O)(Nc1ccc(C)cn1)Oc1ccccc1OC | inactive: -1.07% |
| Cc1ccc(OP(=O)(Nc2nccs2)Oc2ccc(C)cc2)cc1 | inactive: 1.37% |
| Oc1ccccc1CNc1ccccn1 | inactive: -3.52% |
| O=C(NC(Sc1ccncn1)C(Cl)(Cl)Cl)c1ccccc1 (stereo not drawn) | inactive: 9.6% |
| Cc1c2non([O-])c-2c(C)[n+](=O)[n+]1[O-] | inactive: -3.11% |
| Nc1cc(N)c2nonc2c1[N+](=O)[O-] | inactive: 0.09% |
| CC(C)CC(=O)NC(Sc1ccc(Cl)cc1)C(Cl)(Cl)Cl (stereo not drawn) | inactive: -0.17% |
| O=P1(Nc2nc3ccc(Cl)cc3s2)COc2ccccc2O1 (stereo not drawn) | inactive: -2.18% |
| CCOc1ccc(C2=NCC(CBr)S2)cc1 (stereo not drawn) | inactive: -1.9% |
| CC(C)(C)C(=O)NC(Sc1ccccc1)C(Cl)(Cl)Cl (stereo not drawn) | inactive: 0.98% |
| C[C@H]1OP(=O)(Oc2ccccc2)C[C@@H]2O[C@@H]21 (stereo partly drawn) | inactive: -0.79% |
| C[C@@H]1C=CCP(=O)(Oc2ccccc2)O1 (stereo partly drawn) | inactive: 0.46% |
| CC(=O)Nc1ccc([As](=O)(O)O)c(O)c1 | inactive: 1.23% |
| CC(=O)Nc1ccc(Oc2c([N+](=O)[O-])cc([N+](=O)[O-])cc2[N+](=O)[O-])cc1 | inactive: -0.03% |
| c1ccc(-c2nn[nH]n2)c(-c2nn[nH]n2)c1 | inactive: -2.24% |
| CCOC(=O)NC(Sc1ccccc1)C(Cl)(Cl)Cl (stereo not drawn) | inactive: 2.33% |
| Cc1ccc(NP(=O)(Oc2cccc(C)c2)Oc2cccc(C)c2)nc1 | inactive: -1.06% |
| O=C(NC1CCS(=O)(=O)C1)NP(=S)(Oc1ccccc1)Oc1ccccc1 (stereo not drawn) | inactive: 4.3% |
| CCNC(=S)/N=C(\N)N[N+](=O)[O-] | inactive: -32.9% |
| CCC(=O)N1C2C3N(C(=O)CC)C1C1N(C(=O)CC)C(C(N1C(=O)CC)N3C(=O)CC)N2C(=O)CC | inactive: -0.02% |
| COC(=O)c1cc2c(s1)N=C(c1ccccc1)N(C)P2(=O)N1CCOCC1 (stereo not drawn) | inactive: -0.85% |
| Cc1ccc(OP(=O)(Nc2ccccn2)Oc2ccc(C)cc2)cc1 | inactive: 3.99% |
| CC(=O)NC(SC(=S)N(CC(C)C)CC(C)C)C(Cl)(Cl)Cl (stereo not drawn) | inactive: -3.8% |

| SMILES | inhibition |
| --- | --- |
| Cc1ccccc1OP(=O)(Nc1ccccn1)Oc1ccccc1C | inactive: 3.4% |
| O=c1c2cc([N+](=O)[O-])ccc2[nH]c2c([N+](=O)[O-])cc([N+](=O)[O-])cc12 | inactive: 9.56% |
| CN(C)C(=O)Oc1noc2ccccc12 | inactive: -3.42% |
| O=P(Nc1ccccn1)(c1ccc(Br)cc1)c1ccc(Br)cc1 | inactive: -0.45% |
| O=P(Nc1nc2ccccc2s1)(c1ccccc1)c1ccccc1 | inactive: 2.49% |
| C[C@H]1OP(=O)(Oc2ccccc2)[C@H](O)[C@H](O)[C@H]1N=[N+]=[N-] (stereo partly drawn) | inactive: -2.53% |
| O=[As](O)(c1ccccc1)c1ccc(O)cc1 | inactive: 1.07% |
| O=[N+]([O-])c1ncn(CCn2cnc([N+](=O)[O-])n2)n1 | inactive: -6.65% |
| CC(=O)NC(SC(=S)N(C)C)C(Cl)(Cl)Cl (stereo not drawn) | inactive: 4.81% |
| O=C(OC1CN2CCC1CC2)c1cccc(Cl)c1 (stereo not drawn) | inactive: 0.54% |
| C(Cc1nn[nH]n1)Cc1nn[nH]n1 | inactive: 3.28% |
| Nc1ccc([As](=O)(O)c2ccc([N+](=O)[O-])cc2)cc1 | inactive: 6.19% |
| O=P(Nc1nccs1)(c1ccccc1)c1ccccc1 | inactive: -1.64% |
| CC(C)C(=O)NC(Sc1ccccc1)C(Cl)(Cl)Cl (stereo not drawn) | inactive: 0.2% |
| c1nnnn1CCn1cnnn1 | inactive: -1.01% |
| O=P1(Nc2ccccn2)COc2ccccc2OC1 | inactive: 1% |
| CCOP(=O)(Nc1ccc(C)cn1)OCC | inactive: 3.83% |
| CN(CCCl)Cc1cc(Cl)c(NC2=NCCN2)c(Cl)c1 | inactive: 1.33% |
| Clc1n[nH]nc1-c1nn[nH][15n]1 | inactive: 1.85% |
| CC(C)(C)C(=O)NC(Sc1ncccn1)C(Cl)(Cl)Cl (stereo not drawn) | inactive: -3.62% |
| CN(C(=O)Cc1ccc(Cl)c(Cl)c1)[C@@H]1CCCC[C@H]1N1CCCC1 | inactive: -6.88% |
| CC(C)/C=N\N=C(\N)N[N+](=O)[O-] | inactive: 0.62% |
| O=[As](O)(c1ccccc1Br)c1ccccc1Br | inactive: 8.78% |
| CC1(CBr)Cn2c(nc3ccccc3c2=O)S1 (stereo not drawn) | inactive: 3.12% |
| Cc1nn(-c2ccccc2)c2c1P(=O)(N1CCOCC1)N(C)C(c1ccccc1)=N2 (stereo not drawn) | inactive: 9.83% |
| CC1CCC(C(C)C)C(OP(=O)(Nc2ccccn2)c2ccccc2)C1 (stereo not drawn) | inactive: -2.19% |

| SMILES | inhibition |
| --- | --- |
| CN(C)C1(CNC(=O)c2ccc(S(C)(=O)=O)cc2)CCCCC1 | inactive: -0.2% |
| O=C(/C=C/c1ccccc1)OC1CN2CCC1CC2 (stereo not drawn) | inactive: -5% |
| O=P1(Nc2ncccn2)COc2ccccc2OC1 | inactive: 1.08% |
| Nc1cccc([As](=O)(O)c2ccccc2)c1 | inactive: 3.76% |
| O=[As](O)(c1cccs1)c1cccs1 | inactive: 0.6% |
| Cc1ccc(OCC(=O)OC2CN3CCC2CC3)cc1 (stereo not drawn) | inactive: -4.66% |
| O=P1(Nc2ccc(Br)cn2)COc2ccccc2OC1 | inactive: 4.09% |
| CCOP1(=S)c2c(C)nn(CCC#N)c2N=C(c2ccccc2F)N1C (stereo not drawn) | inactive: 1.57% |
| O=P(Nc1nccs1)(Oc1ccccc1)Oc1ccccc1 | inactive: -4.41% |
| O=P(Nc1nccs1)(c1ccccc1)c1nc2ccccc2s1 (stereo not drawn) | inactive: 4.81% |
| CS(=O)(=O)c1cc([N+](=O)[O-])c2no[n+]([O-])c2c1 | inactive: -3.47% |
| O=C(O)COc1ccc([As](=O)(O)O)cc1[N+](=O)[O-] | inactive: -4.82% |
| Nc1ccccc1[As](=O)(O)c1ccccc1 | inactive: 4.97% |
| NC(=O)Nc1ccc([As](=O)(O)O)cc1 | inactive: 10.3% |
| CN(C(=O)Cc1ccccc1)[C@@H]1CC[C@]2(CCCO2)C[C@H]1N1CCCC1 | inactive: 3.84% |
| CCOP1(=S)c2c(C)nn(CCC#N)c2N=C(c2ccc(F)cc2)N1C (stereo not drawn) | inactive: 6.46% |
| O=[N+]([O-])c1ccc2c(c1)nnn2O | inactive: 4.4% |
| CN(C(=O)Cc1ccc(Cl)c(Cl)c1)[C@H]1CC[C@@]2(CCCO2)C[C@@H]1N1CCCC1 | inactive: -9.11% |
| O=C(OC1CN2CCC1CC2)c1ccc(Cl)cc1 (stereo not drawn) | inactive: 2.84% |
| O=[As](O)(O)c1cccnc1 | inactive: 1.65% |
| COc1cc(C(=O)NCC2(N3CCOCC3)CCCCC2)cc(Cl)c1OC(C)C | inactive: 2.12% |
| Cc1cccc(OCC(=O)OC2CN3CCC2CC3)c1 (stereo not drawn) | inactive: -0.16% |
| O=[As](O)(c1cccc(O)c1)c1cccc(O)c1 | inactive: 0.23% |
| Nc1cccc2c([As](=O)(O)O)cccc12 | inactive: 2.82% |
| Cc1ccc(NCCc2c([N+](=O)[O-])cc([N+](=O)[O-])cc2[N+](=O)[O-])cc1 | inactive: 1.69% |
